Laboratory results: publication PMC11925246 (Journal of Bacteriology, 2025)

Assays:
popA expression = settings: 0.5 mM malic acid, popA-lacZ Δrsc1598 resting cells, compared to the wild type (Fig. 7A)
[1] = tested on: hrpB expression in rsc1598 mutant; settings: 0.5 mM malic acid, hrpB-lacZ Δrsc1598 resting cells versus hrpB-lacZ (Fig. 7B)

## O=C(O)CC(O)C(=O)O (centres unmarked) [Malic acid, malic acid]
popA expression
  popA expression induced by malic acid in rsc1598 mutant: significantly reduced popA expression compared to the wild type
[1]
  hrpB expression induced by malic acid in rsc1598 mutant: reduced hrpB expression
